Where two headings read alike, the source gives them in different places.
Test system: coronal proteins on NPs
Parameters: species or system mouse
Conditions: for V5 Sera_Nanoparticles Quantitative Value (Normalized Total Spectra): 20:1 NP:sera, centrifuged and washed; for V5 Sera Alone (Control) Quantitative Value (Normalized Total Spectra): IAV day 5 (V5) mouse sera alone
[1] = HBPE-NPs incubated 1 h with IAV day 5 (V5) mouse sera
[2] = HBPE-NPs incubated with IAV day 5 (V5) mouse sera 1 h
[3] = no NPs, mass spectrometry protein identification

Amino acid sequences for entries named in this document (tags omitted). A change or cut given only in a name is not applied to a line headed by its entry.
UniProt Q9EQ21: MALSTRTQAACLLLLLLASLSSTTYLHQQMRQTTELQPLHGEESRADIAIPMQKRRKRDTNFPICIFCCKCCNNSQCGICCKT

Substance	V5 Sera_Nanoparticles Quantitative Value (Normalized Total Spectra) [1]	V5 Sera Alone (Control) Quantitative Value (Normalized Total Spectra) (no NPs (sera-only control))	V5 Sera_Nanoparticles Quantitative Value (Normalized Total Spectra) [2]	V5 Sera Alone (Control) Quantitative Value (Normalized Total Spectra) [3]
Alpha-2-antiplasmin	5.4396	1.8505		
Ankyrin-1	25.022	2.7757		
Ankyrin-2	1.0879	0		
Ankyrin-3	1.0879	0		
Apolipoprotein A-II	6.5275	14.804		
Apolipoprotein B-100	21.758	19.43		
Beta-2-microglobulin	5.4396	5.5514		
Beta-actin-like protein 2	9.7913	4.6261		
Carbonic anhydrase 2	3.2638	2.7757		
Cathelicidin antimicrobial peptide (ISRLAGLLRKGGEKIGEKLKKIGQKIKNFFQKLVPQPE; UniProt P51437 135-172, looked up)			0	3.7009
Cilia- and flagella-associated protein 221			0	0.9252
Cluster of Ankyrin-1	25.022	2.7757		
Cluster of Filamin-A	4.3517	15.729		
Cluster of Heat shock cognate 71 kDa protein	8.7034	2.7757		
Cluster of Myosin-9	1.0879	4.6261		
Cluster of Tubulin beta-4B chain			0	2.7757
Coagulation factor V	6.5275	4.6261		
Complement C4-B	18.495	36.084		
Desmoplakin	0	0.9252		

Substance	V5 Sera_Nanoparticles Quantitative Value (Normalized Total Spectra) [1]	V5 Sera Alone (Control) Quantitative Value (Normalized Total Spectra) (no NPs (sera-only control))	V5 Sera_Nanoparticles Quantitative Value (Normalized Total Spectra) [2]	V5 Sera Alone (Control) Quantitative Value (Normalized Total Spectra) [3]
Disks large homolog 5	1.0879	0		
E3 ubiquitin-protein ligase MIB1			0	0.9252
Endoplasmic reticulum chaperone BiP	2.1758	0.9252		
Epidermal growth factor receptor	4.3517	6.4766		
Fibronectin	35.901	33.308		
Filamin-A	4.3517	15.729		
Filamin-B	0	1.8505		
Filamin-C	0	2.7757		
Heat shock cognate 71 kDa protein	7.6154	2.7757		
Hemoglobin subunit alpha	41.341	28.682		
Hemoglobin subunit beta-2	54.396	24.981		
Heparin cofactor 2	2.1758	1.8505		
Hepcidin (DTNFPICIFCCKCCNNSQCGICCKT; Hepcidin; UniProt Q9EQ21 59-83, looked up)	1.0879	0.9252		
Immunoglobulin kappa constant	7.6154	11.103		
Myosin-9	1.0879	4.6261		
Myosin-11	1.0879	1.8505		
Peptidyl-prolyl cis-trans isomerase A	1.0879	0		
Pericentrin	0	0.9252		
Plasma kallikrein	15.231	14.804		

Substance	V5 Sera_Nanoparticles Quantitative Value (Normalized Total Spectra) [1]	V5 Sera Alone (Control) Quantitative Value (Normalized Total Spectra) (no NPs (sera-only control))	V5 Sera_Nanoparticles Quantitative Value (Normalized Total Spectra) [2]	V5 Sera Alone (Control) Quantitative Value (Normalized Total Spectra) [3]
Protein PRRC2B	1.0879	0.9252		
Pyruvate kinase PKM			0	2.7757
Retinol-binding protein 4	2.1758	2.7757		
SPARC-like protein 1			0	0.9252
Serotransferrin	96.825	136.93		
Spectrin alpha chain, erythrocytic 1	22.846	2.7757		
Spectrin alpha chain, non-erythrocytic 1	1.0879	0.9252		
Spectrin beta chain, erythrocytic	31.55	3.7009		
Superoxide dismutase [Superoxide dismutase [Cu—Zn]]	1.0879	0.9252		
T-lymphoma invasion and metastasis-inducing protein 1	1.0879	0		
Talin-1	6.5275	9.2523		
Testisin	1.0879	0		
Thrombospondin-1	44.605	24.981		
Transitional endoplasmic reticulum ATPase	3.2638	0.9252		
Transmembrane protein KIAA1109			0	0.9252
Transthyretin	3.2638	7.4018		
Tubulin alpha-1B chain	1.0879	4.6261		
Tubulin alpha-4A chain	2.1758	3.7009		
Tubulin beta-2A chain			0	1.8505

Reference: US20240122867A1, “CORONAL PROTEIN-COATED NANOPARTICLES AND USES THEREOF” (UNIVERSITY OF CENTRAL FLORIDA RESEARCH FOUNDATION, INC., priority 2021, published 2024)
